PubChem BioAssay AID1259414 | Drosophila RNAi Screening Center | 2018
Screen: 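Genome-wide screen for host control of endosymbiont load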 (primary screen). Cells: Drosophila JW18 cells infected with Wolbachia. Knock-down reagent: long dsRNA against Drosophila genes, 0.25 µg dsRNA per well of a 384-well plate. Timing: 5 days. Treatment: cells persistently infected with Wolbachia before knock-down; no added drug. Read-out: 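Imaged fluorescence in situ signal for Wolbachia 23S rRNA per DAPI-counted host cell, given as a robust z-score within each plate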. Scale: Wolbachia per cell robust z: higher = more Wolbachia per host cell than the plate typical. Call rule: 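Active if absolute robust z reaches 1.5 in two or more of three replicates, leaving out multi- or no-target dsRNAs, genes unexpressed in JW18 and A1 wells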.
In all, the deposit lists about 24,000 reagents; this is an unselected part of those that have a named target and a result. Over the whole deposit, about 1,210 (5%) are marked active. 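Inactive calls also include excluded dsRNAs with several or no targets, genes unexpressed in JW18, and well A1, regardless of score.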

no.	gene knocked down	dsRNA	Wolbachia per cell robust z, rep 1	Wolbachia per cell robust z, rep 2	Wolbachia per cell robust z, rep 3	outcome
1	VhaPPA1-1	DRSC16170	0.328	0.662	0.909	inactive
2	VhaPPA1-1	DRSC24144	-1.64	0.367	0.4	inactive
3	hob	DRSC08426	-0.147	0.107	0.121	inactive
4	hob	DRSC24675	-0.23	-0.128	-0.674	inactive
5	CR31427	DRSC22675	-0.978	0.8	0.574	inactive
6	CR31427	DRSC26472	0.355	0.0588	0.399	inactive
7	Spf45	DRSC03826	-0.346	-0.927	0.11	inactive
8	CG32986	DRSC02509	0.701	1.26	0.902	inactive
9	Octbeta3R	DRSC15351	-0.186	0.523	-9.1	inactive
10	Octbeta3R	DRSC16191	0.23	-0.805	0.14	inactive
11	Octbeta3R	DRSC21853	-2.86	-0.0115	0.488	inactive
12	Octbeta3R	DRSC21902	-1.1	-0.909	-0.455	inactive
13	Octbeta3R	DRSC22350	0.961	0.0858	1.08	inactive
14	Octbeta3R	DRSC24019	-0.162	-3.09	-1.84	active
15	Octbeta3R	DRSC25327	0.213	1.07	-0.433	inactive
16	Octbeta3R	DRSC26889	-0.202	-0.208	-1.14	inactive
17	blp	DRSC15757	-0.3	0.339	0.426	inactive
18	blp	DRSC28887	-0.773	0.692	0.933	inactive
19	CG8065	DRSC10959	0.143	0.234	0.156	inactive
20	CG15545	DRSC15083	0.684	0.194	-4.13	inactive
21	CG15545	DRSC29523	0.145	-6.59	0.625	inactive
22	CG33489	DRSC10588	-0.48	0.361	-7.95	inactive
23	CG33489	DRSC26653	0.0384	-0.78	0.41	inactive
24	Polr3E	DRSC11880	1.19	-0.511	1.05	inactive
25	Polr3E	DRSC23914	0.851	1.41	1.31	inactive
26	CG33303	DRSC02848	0.0979	-4.5	-1.26	inactive
27	Cndp2	DRSC04873	0.597	-0.0081	-3.39	inactive
28	tor	DRSC07707	-0.899	0.133	0.783	inactive

Records listed above called active, once more:
gene knocked down	dsRNA	Wolbachia per cell robust z, rep 1	Wolbachia per cell robust z, rep 2	Wolbachia per cell robust z, rep 3	outcome
Octbeta3R	DRSC24019	-0.162	-3.09	-1.84	active
